Compound potency records, mixed from different reports. Data source: NIAID ChemDB in PubChem.

Shared fields: tests in culture; agent: Aspergillus flavus; measure: MIC50

a–b is a range or a potency band. MIC50, MIC90 and the like: level of inhibition, or share of isolates inhibited. Neighbouring rows are from separate reports.

CC[C@@H]([C@H](C)O)n1ncn(-c2ccc(N3CCN(c4ccc(OC[C@@H]5CO[C@@](Cn6cncn6)(c6ccc(F)cc6F)C5)cc4)CC3)cc2)c1=O ; result: >32 µg/mL
C/C(=N\NC(=S)Nc1ccccc1)c1ccc(-n2ccnc2)cc1 ; read by: broth dilution ; result: >745 µM
CCc1ccccc1O ; read by: agar ; result: 128 µg/mL
C/C(=N\NC(=O)c1ccccc1)c1ccc(-n2ccnc2)cc1 ; read by: broth dilution ; result: >821.4 µM
CCCCCOc1ccc(-c2cc(-c3ccc(C(=O)N[C@H]4C[C@@H](O)[C@@H](O)NC(=O)[C@@H]5[C@@H](O)[C@@H](C)CN5C(=O)[C@H]([C@H](O)CC(N)=O)NC(=O)[C@H]([C@H](O)[C@@H](O)c5ccc(O)c(OS(=O)(=O)O)c5)NC(=O)[C@@H]5C[C@@H](O)CN5C(=O)[C@H]([C@@H](C)O)NC4=O)cc3)no2)cc1 ; result: 0.015 µg/mL
OCCCCNc1cccc2cccnc12 ; read by: turbidity ; result: 31.6 µg/mL
C/C(=N\NC(N)=S)c1ccc(-n2ccnc2)cc1 ; read by: broth dilution ; result: >964 µM
Nc1[nH]c(=O)ncc1F ; result: >64 µg/mL
CNC(=S)N/N=C/c1ccc(-n2ccnc2)cc1 ; read by: broth dilution ; result: >964 µM
O=C(O)/C=C/c1ccc(O)cc1 ; read by: agar ; result: >1000 µg/mL
CC(C)(O)CCCNc1cccc2ncccc12 ; read by: turbidity ; result: 62.5 µg/mL
O=C(O)c1ccccc1O ; read by: agar ; result: 369 µg/mL
NC(=S)N/N=C/c1cnc[nH]1 ; read by: broth dilution ; result: >1480 µM
COc1cc(C(=O)O)cc(OC)c1O ; read by: agar ; result: >1000 µg/mL
C[C@H]1[C@H](O)[C@@H](C)/C=C/C=C/C=C/C=C/C=C/C=C/C=C/[C@H](O[C@@H]2O[C@H](C)[C@@H](O)[C@H](N)[C@@H]2O)C[C@@H]2O[C@](O)(C[C@@H](O)C[C@@H](O)CC[C@H](O)[C@@H](O)C[C@@H](O)CC(=O)O[C@H]1C)C[C@H](O)[C@H]2C(=O)O ; result: 1–2 µg/mL
C=CCc1ccc(O)c(OC)c1 ; read by: agar ; result: 98 µg/mL
CCCCCOc1ccc(-c2ccc(-c3ccc(C(=O)N[C@H]4C[C@@H](O)[C@@H](O)NC(=O)[C@@H]5[C@@H](O)[C@@H](C)CN5C(=O)[C@H]([C@H](C)O)NC(=O)[C@H]([C@H](O)[C@@H](O)c5ccc(O)cc5)NC(=O)[C@@H]5C[C@@H](O)CN5C(=O)[C@H]([C@H](C)O)NC4=O)cc3)cc2)cc1 ; result: 0.015 µg/mL
Cc1ccc(C(C)C)cc1O ; read by: agar ; result: 57 µg/mL
CC(=O)N/N=C/c1ccc(-n2ccnc2)cc1 ; read by: broth dilution ; result: >1100 µM